# Earlier results, collected in patent US20230399674A1, “METHODS AND COMPOSITIONS FOR DEGRADING DEOXYNIVALENOL” (published 2023).
# Conditions: well known in the art (Stadler et al. 2019)
substance,measurement,value
"3,8,15-trihydroxy-12,13-epoxytrichothec-8-en-7-one",toxicity relative to DON,less toxic than DON
